Results taken from publication PMC4131687.
Read-outs that look alike come from different tables or passages of the source.

What was measured:
[1] = target: NaV1.2 (Rattus norvegicus) (UniProt P04775)
[2] = target: NaV1.2 (Rattus norvegicus) (UniProt P04775); remark: listed apart in the source

| Substance | Kd [1] | Kd [2] |
| --- | --- | --- |
| μ-conotoxin KIIIB-P1 (from UniProt P0C195) | 470 nM | – |
| μ-conotoxin KIIIB-P2 (from UniProt P0C195) | – | 26 nM |
